# What was measured:
# [1] = system: C[C@](O)(CO)[C@H](O)COP(=O)(O)OP(=O)(O)OC[C@H]1O[C@@H](n2ccc(N)nc2=O)[C@H](O)[C@@H]1O; assay: purified protein; settings: pH 7.0; 37.0 °C
# [2] = system: Nc1ncnc2c1ncn2[C@@H]1O[C@H](COP(=O)(O)OP(=O)(O)OP(=O)(O)O)[C@@H](O)[C@H]1O; assay: purified protein; settings: pH 7.0; 37.0 °C
Substance,Km [1] [µM],Km [2] [µM]
(Vibrio cholerae O1 biovar El Tor str. N16961),52.9 ± 11.7,8.8 ± 1.3
(Burkholderia mallei ATCC 23344),31.3 ± 1.5,76.6 ± 1.1

# Reference: PMC4020808
